Publication PMC8546121, “Structure of Machupo virus polymerase in complex with matrix protein Z” (2021)

Molecular target: Machupo virus (MACV) L protein (Machupo virus) (UniProt Q6IUF8)
Assay: cryo-EM structure

## Machupo virus (MACV) L protein, Q6IUF8 1-2209
  stoichiometry N: 2
